Experiments:
Human Cytomegalovirus = assay: Semi-automated CPE-inhibition assay for HCMV in human foreskin fibroblast cells; assay type: cell-based; conditions: CC50/EC50
Method: (§1) Additional antiviral testing was carried out to test the efficacy of compounds of the invention against human cytomegalovirus (HCMV) and another herpesvirus, Variecella Zoster Virus(VZV). The compounds tested were compound (1), the HCl salt of compound (1), Compounds 211, 43, 213 and 214.

Varicella Zoster Virus = assay: Plaque reduction assay for VZV (Ellen strain); assay type: cell-based; conditions: CC50/EC50
Method: as §1

Compound | Human Cytomegalovirus SI (Human Cytomegalovirus) | Varicella Zoster Virus SI (Varicella Zoster Virus)
C=C1CN(S(=O)(=O)c2ccc(C)cc2)CCC[N+]([O-])(Cc2ccccc2)CCCN(S(=O)(=O)c2ccc(C)cc2)C1 [Compound 43, 9-Benzyl-3-methylene-1,5-ditosyl-1,5,9-triazacyclododecane-9-oxide] | 0 | >7.0
N-Benzyl-N-[3-(N-2-methyl-2-propenyl-toluenesulfonamido)propyl]-N-(3-toluenesulfonamidopropyl)amine dihydrogen sulfate [Compound 214] | >68 | 2.7
C=C1CN(S(=O)(=O)c2ccccc2)CCCN(Cc2ccccc2)CCCN(S(=O)(=O)c2ccccc2)C1 [Compound 211, 9-Benzyl-3-methylene-1,5-dibenzenesulfonyl-1,5,9-triazacyclododecane] | 0 | >1.8
C=C1CN(S(=O)(=O)c2ccc(C)cc2)CCCN(Cc2ccccc2)CCCN(S(=O)(=O)c2ccc(C)cc2)C1.Cl [1 · HCl] | 0 | >47.1
C=C1CN(S(=O)(=O)c2ccc(C)cc2)CCCN(Cc2ccccc2)CCCN(S(=O)(=O)c2ccc(C)cc2)C1 [Compound 1, 9-Benzyl-3-methylene-1,5-ditosyl-1,5,9-triazacyclododecane] | <3.9 | 16.8
C=C1CN(S(=O)(=O)c2ccc(C)cc2)CCCN(C(=O)OCC)CCCN(S(=O)(=O)c2ccc(C)cc2)C1 [Compound 213, 9-(Ethyloxycarbonyl)-3-methylene-1,5-ditosyl-1,5,9-triazacyclododecane] | 55.6 | >1.0

Reference: patent publication US6342492B1, “Anti-viral triaza compounds and compositions” (The Research Foundation of State University of New York, priority 1995, dated 2002)
